Source: PubChem BioAssay AID435019 (Southern Research Specialized Biocontainment Screening …, 2010)

Test system: mammalian cell viability, cytotoxicity counter-screen
Experiment: mammalian cell cytotoxicity, dose response, cytotoxicity control for M. tuberculosis inhibitor project (AID 435019)

## CN(C)C(=O)c1cc([N+](=O)[O-])cc2c1-c1c(cc([N+](=O)[O-])cc1[N+](=O)[O-])C2=O
  CC50: 11.5 µM
